Fold change is the IC50 on the isolate divided by the IC50 on a reference virus; 1 = unchanged, higher = more resistant. Changes are given against the subtype B consensus. No active / inactive call. The values were gathered from many studies (numbered anew) with different assays, which the source does not name. Most viruses are clinical isolates; some are laboratory strains or clones with known resistance changes. Isolates with mixed residues are left out; stretches that were not sequenced show no change. Round top values that many isolates share are read here as limits; other very high values and 0.1 may be limits too. The protease changes I3V and N37S, insertions and deletions cannot be read from the source.
Assays:
Assay in all cases: fold change of IC50 against reference virus; higher = more resistant; Cell-culture drug susceptibility tests of virus bearing the protease of each isolate, gathered from many studies.
atazanavir = compound: COC(=O)N[C@H](C(=O)N[C@@H](Cc1ccccc1)[C@@H](O)CN(Cc1ccc(-c2ccccn2)cc1)NC(=O)[C@@H](NC(=O)OC)C(C)(C)C)C(C)(C)C [atazanavir]
tipranavir = compound: CCC[C@@]1(CCc2ccccc2)CC(O)=C([C@H](CC)c2cccc(NS(=O)(=O)c3ccc(C(F)(F)F)cn3)c2)C(=O)O1 [tipranavir]
nelfinavir = compound: Cc1c(O)cccc1C(=O)N[C@@H](CSc1ccccc1)[C@H](O)CN1C[C@H]2CCCC[C@H]2C[C@H]1C(=O)NC(C)(C)C [nelfinavir]
indinavir = compound: CC(C)(C)NC(=O)[C@@H]1CN(Cc2cccnc2)CCN1C[C@@H](O)C[C@@H](Cc1ccccc1)C(=O)N[C@H]1c2ccccc2C[C@H]1O [indinavir]
saquinavir = compound: CC(C)(C)NC(=O)[C@@H]1C[C@@H]2CCCC[C@@H]2CN1C[C@@H](O)[C@H](Cc1ccccc1)NC(=O)[C@H](CC(N)=O)NC(=O)c1ccc2ccccc2n1 [saquinavir]
ritonavir = compound: CC(C)c1nc(CN(C)C(=O)N[C@H](C(=O)N[C@@H](Cc2ccccc2)C[C@H](O)[C@H](Cc2ccccc2)NC(=O)OCc2cncs2)C(C)C)cs1 [ritonavir]
lopinavir = compound: Cc1cccc(C)c1OCC(=O)N[C@@H](Cc1ccccc1)[C@@H](O)C[C@H](Cc1ccccc1)NC(=O)[C@H](C(C)C)N1CCCNC1=O [lopinavir]

| Test System | fold change of IC50 against reference virus (atazanavir) | fold change of IC50 against reference virus (tipranavir) | fold change of IC50 against reference virus (nelfinavir) | fold change of IC50 against reference virus (indinavir) | fold change of IC50 against reference virus (saquinavir) | fold change of IC50 against reference virus (ritonavir) | fold change of IC50 against reference virus (lopinavir) |
| --- | --- | --- | --- | --- | --- | --- | --- |
| HIV-1 isolate 1344 (protease changes: L10I K43S M46I I54V R57K I62V L63P A71V G73T V77I V82F L90M I93L, study 64) | 72 | 3.4 | 124 | 170 | 19 | ≥ 800 | 160 |
| HIV-1 isolate 1524 (protease changes: V32I M46I I47V I62V L63P I72Y G73S V77I I93L, study 64) | 9 | 1.6 | 8 | 16 | 1 | 9.6 | 8.7 |
| HIV-1 isolate 514 (protease changes: T12S I62V L63P V77I L90M I93L, study 64) | 1.7 | 1 | 4.3 | 1.8 | 2.7 | 2.9 | 1.1 |
| HIV-1 isolate 208 (protease changes: L10I K20R L24I E35D M36I N37E M46I I54V Q61N I62V L63P I64V A71V I72V T74S L76V V82T I93L, study 64) | 7.7 | 1.4 | 31 | ≥ 500 | 8.2 | 84 | ≥ 500 |
| HIV-1 isolate 1554 (protease changes: I13V I64V I72V, study 64) | 0.5 | 0.8 | 1.1 | 0.8 | 0.7 | 0.8 | 0.8 |
| HIV-1 isolate 86 (protease changes: T12K, study 64) | 0.6 | 0.7 | 0.7 | 0.7 | 0.6 | 0.8 | 0.7 |
| HIV-1 isolate 1497 (protease changes: I15V M36I I64V V82L, study 64) | 1.2 | 1.4 | 0.8 | 0.6 | 0.7 | 3.3 | 0.6 |
| HIV-1 isolate 1395 (protease changes: L10I I15V L19I K20R M36I R41K M46L I54V L63P A71V L76V V82A L90M I93L, study 64) | 0.7 | 0.9 | 6.8 | 22 | 3.8 | 43 | 33 |
| HIV-1 isolate 1113 (protease changes: none, study 64) | 0.7 | 0.5 | 0.6 | 0.8 | 0.5 | 0.7 | 0.6 |
| HIV-1 isolate 379 (protease changes: L10F L19I K20R L23I E35D M36I R41K M46I I50V F53L I54V L63P I64V I66V A71I G73T L90M I93L, study 64) | 47 | 0.5 | 93 | 5 | ≥ 1000 | ≥ 800 | 94 |
| HIV-1 isolate 650 (protease changes: R57K D60E L63P I64V G73C V77I L90M, study 64) | 3.1 | 1 | 7.1 | 3 | 3.6 | 6.3 | 1.3 |
| HIV-1 isolate 819 (protease changes: L10I L24I R41K M46I L63P I64V V82A I84V, study 64) | 3.1 | 1.3 | 4.4 | 3.8 | 3.4 | 28 | 7.9 |
| HIV-1 isolate 833 (protease changes: R57G, study 76) | 1 | 1 | 1 | 1 | 1 | 1 | 1 |
| HIV-1 isolate 719 (protease changes: L10I I13V L19V L24I V32I L33F K43E M46L I54V D60E L63P A71V I72V V82A I84V, study 64) | 206 | 5.5 | 55 | 24 | 14 | ≥ 800 | 116 |
| HIV-1 isolate 860 (protease changes: L10I L24F M46I D60E I62V L63P A71V I72V G73S V77I L90M I93L, study 64) | 16 | 0.9 | 49 | 17 | 21 | 18 | 8.9 |
| HIV-1 isolate 314 (protease changes: T4S L10I K20R E35D M36I L63P H69Q L90M, study 64) | 1.5 | 1 | 3.3 | 1.6 | 2.5 | 3.1 | 1.4 |
| HIV-1 isolate 1440 (protease changes: R57K L63P E65D, study 64) | 0.7 | 0.9 | 0.8 | 0.6 | 0.9 | 0.6 | 0.8 |
| HIV-1 isolate 260 (protease changes: I13V Q18H L63P, study 64) | 0.5 | 0.6 | 1.1 | 0.7 | 0.7 | 0.8 | 0.5 |

| Test System | fold change of IC50 against reference virus (atazanavir) | fold change of IC50 against reference virus (tipranavir) | fold change of IC50 against reference virus (nelfinavir) | fold change of IC50 against reference virus (indinavir) | fold change of IC50 against reference virus (saquinavir) | fold change of IC50 against reference virus (ritonavir) | fold change of IC50 against reference virus (lopinavir) |
| --- | --- | --- | --- | --- | --- | --- | --- |
| HIV-1 isolate 1386 (protease changes: E35D M36I R41K I62V L63P V77I I93L, study 64) | 1.1 | 1.3 | 2.5 | 1.2 | 1 | 1.4 | 1 |
| HIV-1 isolate 1470 (protease changes: L33F K45I R57G I84V, study 76) | 2 | 2 | 1 | 6 | 3 | 6 | 4 |
| HIV-1 isolate 1152 (protease changes: L10V I13V I15V L19I K20T V32I M36I M46I I47V Q58E L63P I64V I84V Q92K, study 64) | 33 | 16 | 29 | 17 | 5.5 | 34 | 78 |
| HIV-1 isolate 1011 (protease changes: L10I K20R E35D M36I K43T I47V G48M F53L I54V I62V L63P I66F A71V V82T I84V Q92R, study 64) | 46 | 16 | 12 | 57 | – | ≥ 800 | 58 |
| HIV-1 isolate 2 (protease changes: L10I E35D M36I G48V I50V I54V I62V L63A A71V V82T, study 64) | 4.6 | 0.2 | 12 | 30 | – | 41 | 65 |
| HIV-1 isolate 1476 (protease changes: L10I K20R L33I M36I I54V Q58E D60E L63P A71V V82L I84V L90M I93L, study 64) | 324 | ≥ 800 | 118 | 134 | – | ≥ 800 | 101 |
| HIV-1 isolate 1369 (protease changes: L10I I13V L63P H69Q I72V V77I, study 64) | 1.5 | 1.2 | 2.2 | 1.5 | – | 1.9 | 1.2 |
| HIV-1 isolate 966 (protease changes: L10F G16A L19I K20R L33F E35D M36L N37D K43T M46L I54V K55R R57K D60E I62V L63P A71V V82A I84V L90M I93L, study 64) | 59 | 24 | 64 | 63 | – | ≥ 800 | 127 |
| HIV-1 isolate 754 (protease changes: T4S L10I K20R E35D M36I G48V I50V I54A I62V L63P H69Q A71V V82T Q92K, study 64) | 17 | 0.6 | 29 | 97 | – | 75 | 118 |
| HIV-1 isolate 1520 (protease changes: L10F I13V K20R D30N L33I E35D M36I M46L I54V R57K L63P A71V V82A N88D L90M I93L, study 64) | 51 | 1.1 | ≥ 600 | 57 | – | ≥ 800 | 97 |
| HIV-1 isolate 1081 (protease changes: L10F I13V K20R D30N V32I L33F M36I N37D M46I I54L L63P I64L I66V A71T I72T I84V N88D L89M L90M I93L C95F, study 64) | ≥ 700 | 1 | ≥ 600 | 36 | – | ≥ 800 | 76 |
| HIV-1 isolate 1162 (protease changes: L10I L33F E35D M36I K43T G48V I54T L63P H69R A71I V82A I84V I93L, study 64) | ≥ 700 | 4.2 | 62 | ≥ 500 | – | ≥ 800 | 106 |
| HIV-1 isolate 1378 (protease changes: L10I K20R E35D M36I N37D M46L G48V I54V D60E I62V L63P A71V I72V V77I V82S L90M I93L, study 64) | ≥ 700 | 4.8 | ≥ 600 | ≥ 500 | – | ≥ 800 | ≥ 500 |
| HIV-1 isolate 275 (protease changes: L10I I13V L33F R41K M46L I54V K55R Q58E D60E Q61E L63P A71T I72T G73C V82A I84V L90M, study 64) | 72 | 11 | 30 | 42 | – | ≥ 800 | 129 |
| HIV-1 isolate 1623 (protease changes: L10I L24I M46L G48V I54V L63P A71V V77I V82A, study 64) | 161 | 0.5 | 99 | 90 | – | ≥ 800 | 126 |
| HIV-1 isolate 436 (protease changes: L10F I15V D30N L33F E35D M36L N37E K43T D60E I62V L63P I84V N88D L90M, study 64) | 99 | 3.1 | ≥ 600 | 15 | – | 57 | 30 |
| HIV-1 isolate 750 (protease changes: L10I K14R V32I R41K G48M F53L I54M I62V L63A C67D H69R A71L I72V V77I V82A I84V L90M I93L, study 64) | 55 | 1.3 | 19 | 61 | – | ≥ 800 | 39 |
| HIV-1 isolate 1453 (protease changes: L10I L33F M46I F53L I54L I62V L63P A71V T74P I84V L90M I93L, study 64) | 100 | 5.3 | 43 | 11 | – | ≥ 800 | 58 |
